This series is described as follows: label from the status in PepcDB records.

Here are results for one sequence from a protein production outcome set (Wang et al. 2014).

Consider “MPLNVSFTNRNYDLDYDSVQPYFYCDEEENFYQQQQQSELQPPAPSEDIWKKFELLPTPPLSPSRRSGLCSPSYVAVTPFSLRGDNDGGGGSFSTADQLEMVTELLGGDMVNQSFICDPDDETFIKNIIIQDCMWSGFSAAAKLVSEKLASYQAARKDSGSPNPARGHSVCSTSSLYLQDLSAAASECIDPSVVFPYPLNDSSSPKSCASQDSSAFSPSSDSLLSSTESSPQGSPEPLVLHEETPPTTSSDSEEEQEDEEEIDVVSVEKRQAPGKRSESGSPSAGGHSKPPHSPLVLKRCHVSTHQHNYAAPPSTRKDYPAAKRVKLDSVRVLRQISNNRKCTSPRSSDTEENVKRRTHNVLERQRRNELKRSFFALRDQIPELENNEKAPKVVILKKATAYILSVQAEEQKLISEEDLLRKRREQLKHKLEQLRNSCA”, for which the protein production result is on record as “failed”.
